Anti-infective test results gathered from many reports (values: NIAID ChemDB through PubChem).

Shared fields: target-level tests

Two numbers with a dash give a range or band.

structure	read by	target	organism	read-out	tested at	mutations	value
CC(C)=CCN1Cc2cccc3[nH]c(=S)n(c23)C[C@@H]1C	nucleotide incorporation	Reverse transcriptase	HIV	IC50		RT-K263V	0.2 µM
CC(C)NC(=O)OCCC(C)(C)CN(C[C@@H](O)[C@H](Cc1ccccc1)NC(=O)O[C@H]1CO[C@H]2OCC[C@H]21)S(=O)(=O)c1ccc2c(c1)OCO2	fluorescence	Protease	HIV-1	Ki			<0.001 µM
CCCC[C@@H](CN[C@@H](CCC(N)=O)C(=O)N[C@@H](CCCN=C(N)N)C(N)=O)NC(=O)[C@H](CCCC)NC(=O)C(NC(=O)C(NC(C)=O)[C@@H](C)O)[C@@H](C)CC	HPLC	Protease	HIV	IC50		PR-M46L	>2.17 µM
CC(C)OC(=O)NCCCCCC(C)(C)CN(C[C@@H](O)[C@H](Cc1ccccc1)NC(=O)O[C@H]1CO[C@H]2OCC[C@H]21)S(=O)(=O)c1ccc2c(c1)OCO2	fluorescence	Protease	HIV-1	Ki			<0.001 µM
CC(C)[C@H](NC(=O)COc1cccc2ccccc12)C(=O)N[C@@H](Cc1ccccc1)[C@H](O)C(=O)N1CSC[C@H]1C(=O)NC(C)(C)C		Protease	HIV-1	inhibition	0.05 µM		94.5%
COCC(=O)NCCC(C)(C)CN(C[C@@H](O)[C@H](Cc1ccccc1)NC(=O)O[C@H]1CO[C@H]2OCC[C@H]21)S(=O)(=O)c1ccc2c(c1)OCO2	fluorescence	Protease	HIV-1	Ki			<0.001 µM
CC(C)(C)NC(=O)[C@@H]1CC(O)CN1C(=O)[C@@H](O)[C@H](Cc1ccccc1)NC(=O)[C@H](CS(C)(=O)=O)NC(=O)COc1cccc2ccccc12		Protease	HIV-1	IC50			<0.05 µM
Nc1ncnc2c1ncn2[C@H]1CC[C@@H](COP(=O)(O)OP(=O)(O)OP(=O)(O)O)O1		Reverse transcriptase	HIV	Ki			4 µM
CCCOc1cc(Cl)cc(CN2CCn3cc(-c4nccs4)c(=O)c(O)c3C2=O)c1	ELISA	Integrase	HIV-1	IC50			0.01–0.1 µM
CC(C)(CCCCCN=C(NC#N)Oc1ccccc1)CN(C[C@@H](O)[C@H](Cc1ccccc1)NC(=O)O[C@H]1CO[C@H]2OCC[C@H]21)S(=O)(=O)c1ccc2c(c1)OCO2	fluorescence	Protease	HIV-1	Ki			<0.001 µM
Nc1nc2c(ncn2[C@H]2CO[C@@H](COP(=O)(O)OP(=O)(O)OP(=O)(O)O)O2)c(=O)[nH]1	radiometric	Reverse transcriptase	HIV	fold resistance		RT-L74V K103N	1.1
Nc1ccn([C@H]2CC[C@@H](COP(=O)(O)OP(=O)(O)OP(=O)(O)O)O2)c(=O)n1		Reverse transcriptase	HIV	Ki		RT-L74V	17 µM
CC(C)S(=O)(=O)Nc1cn2ccn(Cc3ccc(F)cc3)c(=O)c2c(O)c1=O	ELISA	Integrase	HIV-1	IC50			0.01–0.1 µM
CS(=O)(=O)C[C@H](NC(=O)COc1cccc2ccccc12)C(=O)N[C@@H](Cc1ccccc1)[C@H](O)C(=O)N1CSC[C@H]1C(=O)NCCCC(N)=O		Protease	HIV-1	inhibition	0.05 µM		35%
O=c1c(-c2ccncn2)cn2ccn(Cc3ccc(Cl)cc3)c(=O)c2c1O	ELISA	Integrase	HIV-1	IC50			<0.01 µM
CC[C@@H](C)[C@H](NC(=O)[C@@H]1CCCN1C(=O)[C@@H](O)[C@H](CC1CCCCC1)NC(=O)[C@H](CS(C)(=O)=O)NC(=O)CCc1ccccc1)C(=O)N[C@H](C(N)=O)C(C)C		Protease	HIV-1	inhibition	5 µM		96.8%
CC(C)(CCCCNC(=O)c1ccccc1)CN(C[C@@H](O)[C@H](Cc1ccccc1)NC(=O)O[C@H]1CO[C@H]2OCC[C@H]21)S(=O)(=O)c1ccc2c(c1)OCO2	fluorescence	Protease	HIV-1	Ki			<0.001 µM
CC(C)(C)OC(=O)N[C@@H](CC(N)=O)C(=O)N[C@@H](Cc1ccccc1)[C@@H](O)C(=O)NCC1CCCCC1		Protease	HIV-1	IC50			<1000 µM
CNC(=S)NCCCC(C)(C)CN(C[C@@H](O)[C@H](Cc1ccccc1)NC(=O)O[C@H]1CO[C@H]2OCC[C@H]21)S(=O)(=O)c1ccc2c(c1)OCO2	fluorescence	Protease	HIV-1	Ki			<0.001 µM
CC(C)(C)NC(=O)[C@H]1N(C(=O)[C@@H](O)[C@H](Cc2ccccc2)NC(=O)[C@H](CC(N)=O)NC(=O)COc2ccccc2Cl)CSC1(C)C		Protease	HIV-1	IC50			<0.05 µM
O=C(NCc1ccccn1)c1cn2c(c(O)c1=O)C(=O)N(Cc1cccc(Cl)c1)CC2	ELISA	Integrase	HIV-1	IC50			0.01–0.1 µM
CC(C)(CCCCN)CN(C[C@@H](O)[C@H](Cc1ccccc1)NC(=O)O[C@H]1CO[C@H]2OCC[C@H]21)S(=O)(=O)c1cccc(N)c1	fluorescence	Protease	HIV-1	Ki			<0.001 µM

The last 2 rows once more:

| structure | read by | target | organism | read-out | tested at | mutations | value |
|---|---|---|---|---|---|---|---|
| O=C(NCc1ccccn1)c1cn2c(c(O)c1=O)C(=O)N(Cc1cccc(Cl)c1)CC2 | ELISA | Integrase | HIV-1 | IC50 |  |  | 0.01–0.1 µM |
| CC(C)(CCCCN)CN(C[C@@H](O)[C@H](Cc1ccccc1)NC(=O)O[C@H]1CO[C@H]2OCC[C@H]21)S(=O)(=O)c1cccc(N)c1 | fluorescence | Protease | HIV-1 | Ki |  |  | <0.001 µM |

Fold resistance: result on the changed form divided by that on wild type. ICn is the concentration giving n% inhibition. Neighbouring rows are from separate reports. Inhibition is in % at the dose shown (toxicity tests: loss of growth or viability). Blank or dashed fields: not listed here.